Key:
[1] = system: Magnaporthe grisea; assay: Rice blast disease pot test (Test Example A); conditions: for Rice blast disease pot test (control value): 250 ppm sprayed, 2.5 ml/pot, rice variety Sachikaze, degree of disease development 6 to 8 days after inoculation
Procedure: Seeds of test plants (rice variety: Sachikaze) were planted and then cultivated until the second leaves appeared. In the test, each synthesized compound was dissolved in a dimethyl sulfoxide-methanol mixed solution (volume ratio: 9/1) and diluted into a concentration of 250 ppm with ion exchange water to obtain a chemical. The obtained chemical was sprayed to the test plants (2.5 ml/pot). After drying of the chemical, the plants were inoculated by spraying of 3 to 5 × 10^4 organisms/ml of a conidium suspension of Magnaporthe grisea. The plants thus inoculated were left at room temperature of 23 to 25°C in a moist chamber for approximately 24 hours to promote the onset of the disease. The degree of disease development was investigated 6 to 8 days after inoculation, and effects of the chemical were evaluated.
(§1) The degrees of disease development in these Test Examples were evaluated by 0.05 when the degree of disease development in a plant having no onset of the disease was defined as 0 and the degree of disease development in a plant in a group without chemical treatment was defined as 3. From the degree of disease development, a control value was calculated according to the following expression.
(§2) Control value = 100{1−(n/3)} [formula] N = Degree of disease development in each chemical treatment group.

[2] = system: Fusarium blight fungus (Fusarium graminearum); assay: Fusarium blight anti-germ test (Test Example D); conditions: for Fusarium blight anti-germ test (rate of inhibition): 50 ppm/well, Czapek-dox broth, 25°C for 3 days, absorbance 600 nm; for rate of inhibition (Test Example D): Fusarium blight fungus (Fusarium graminearum) anti-germ test
Procedure: (§3) Fusarium blight fungus (Fusarium graminearum) Conidia were suspended in Czapek-dox broth and a suspension of 1 × 10^5 spores were prepared. The prepared spore suspension was seeded at 100 µl/well to a 96-well multiplate. In the test, each compound was dissolved in a dimethyl sulfoxide-methanol mixed solution (volume ratio: 9/1) and dispensed at 50 ppm/well. The absorbance of each well was measured at a wavelength of 600 nm using a photometer. The multiplate was incubated at 25°C for 3 days, followed by absorbance measurement again. The difference in absorbance between the treatment day and 3 days later was calculated, and the rate of inhibition was calculated from the ratio between the treatment group and the non-treatment group.

[3] = system: Botrytis cinerea; assay: Tomato gray mold pot test (Test Example B); conditions: for Tomato gray mold pot test (control value): 250 ppm sprayed, 2.5 ml/pot, tomato variety Oogata Fukuju, degree of disease development 2 to 3 days after inoculation
Procedure: Seeds of test plants (tomato variety: Oogata Fukuju) were planted and then cultivated until three first leaves appeared. In the test, each compound was dissolved in a dimethyl sulfoxide-methanol mixed solution (volume ratio: 9/1) and diluted into a concentration of 250 ppm with ion exchange water to obtain a chemical. The obtained chemical was sprayed to the test plants (2.5 ml/pot). After drying of the chemical, the plants were inoculated by spraying of 3 to 6 × 10^5 organisms/ml of a conidium suspension of Botrytis cinerea. The plants thus inoculated were left at room temperature of 23 to 25°C in a moist chamber for approximately 48 hours to promote the onset of the disease. The degree of disease development was investigated 2 to 3 days after inoculation, and effects of the chemical were evaluated.
as §1, §2

[4] = system: Gray mold fungus (Botrytis cinerea); assay: Gray mold anti-germ test (Test Example C); conditions: for Gray mold anti-germ test (rate of inhibition): 50 ppm/well, Czapek-dox broth, 25°C for 3 days, absorbance 600 nm; for rate of inhibition (Test Example C): Gray mold fungus (Botrytis cinerea) anti-germ test
Procedure: as §3, with “Gray mold” for “Fusarium blight”, “(Botrytis cinerea)” for “(Fusarium graminearum)”

[5] = system: Anthracnose fungus (Glomerella cingulata); assay: Anthracnose anti-germ test (Test Example E); conditions: for Anthracnose anti-germ test (rate of inhibition): 50 ppm/well, Czapek-dox broth, 25°C for 3 days, absorbance 600 nm
Procedure: as §3, with “The” for “Fusarium blight fungus (Fusarium graminearum) Conidia were suspended in Czapek-dox broth and a suspension of 1 × 10^5 spores were prepared. The”

[6] = system: Speckled leaf blotch fungus (Septoria tritici); assay: Speckled leaf blotch anti-germ test (Test Example F); conditions: for Speckled leaf blotch anti-germ test (rate of inhibition): 50 ppm/well, Czapek-dox broth, 25°C for 3 days, absorbance 600 nm
Procedure: as §3, with “Speckled leaf blotch” for “Fusarium blight”, “(Septoria tritici)” for “(Fusarium graminearum)”

Structure (SMILES) | Rice blast disease pot test (control value) [1] | Fusarium blight anti-germ test (rate of inhibition) [2] | Tomato gray mold pot test (control value) [3] | Gray mold anti-germ test (rate of inhibition) [4] | Speckled leaf blotch anti-germ test (rate of inhibition) [6] | rate of inhibition (Test Example D) [2] | rate of inhibition (Test Example C) [4] | also measured
Cc1ccnc2c(C3=NC(C)(C4CC4)Oc4ccccc43)cnn12 (stereo not shown) | – | – | – | – | – | – | – | control value ([1]; Test Example A, rice blast disease pot test): H (H represents a control value or rate of inhibition of larger than 50%); rate of inhibition ([2]; Test Example D, Fusarium blight anti-germ test): H (H represents a control value or rate of inhibition of larger than 50%); control value ([3]; Test Example B, tomato gray mold pot test): H (H represents a control value or rate of inhibition of larger than 50%); rate of inhibition ([4]; Test Example C, gray mold anti-germ test): H (H represents a control value or rate of inhibition of larger than 50%); rate of inhibition ([5]; Test Example E, anthracnose anti-germ test): H (H represents a control value or rate of inhibition of larger than 50%); rate of inhibition ([6]; Test Example F, speckled leaf blotch anti-germ test): L (L represents a control value or rate of inhibition of 50% or less)
CCC1(C)N=C(n2cnc3c(C)cccc32)c2cccc(C)c2O1 (stereo not shown) | H (H represents a control value or rate of inhibition of larger than 50%) | L (L represents a control value or rate of inhibition of 50% or less) | H (H represents a control value or rate of inhibition of larger than 50%) | H (H represents a control value or rate of inhibition of larger than 50%) | H (H represents a control value or rate of inhibition of larger than 50%) | – | – | Anthracnose anti-germ test (rate of inhibition) [5]: H (H represents a control value or rate of inhibition of larger than 50%)
Cc1cccc2c1OC(C)(C)N=C2n1cnc2c(C3CC3)cccc21 | H (H represents a control value or rate of inhibition of larger than 50%) | L (L represents a control value or rate of inhibition of 50% or less) | H (H represents a control value or rate of inhibition of larger than 50%) | L (L represents a control value or rate of inhibition of 50% or less) | H (H represents a control value or rate of inhibition of larger than 50%) | – | – | –
Cc1ccnn2c(C3=NC(C)(c4cccc(F)c4)Oc4c(Cl)cccc43)cnc12 (stereo not shown) | – | – | – | – | – | H (H represents a control value or rate of inhibition of larger than 50%) | H (H represents a control value or rate of inhibition of larger than 50%) | –
Cc1cccc2c1ncn2C1=NC(C)(C)[S+]([O-])c2c(F)cccc21 (stereo not shown) | H (H represents a control value or rate of inhibition of larger than 50%) | L (L represents a control value or rate of inhibition of 50% or less) | H (H represents a control value or rate of inhibition of larger than 50%) | L (L represents a control value or rate of inhibition of 50% or less) | L (L represents a control value or rate of inhibition of 50% or less) | – | – | –
Cc1c(Br)cnc2c1ncn2C1=NC(C)(c2ccccc2)Oc2c(F)cccc21 (stereo not shown) | – | – | – | – | – | H (H represents a control value or rate of inhibition of larger than 50%) | H (H represents a control value or rate of inhibition of larger than 50%) | –
Cc1c(Cl)cnc2c1ncn2C1=NC(C)(c2ccccc2)Oc2c(F)cccc21 (stereo not shown) | – | – | – | – | – | H (H represents a control value or rate of inhibition of larger than 50%) | H (H represents a control value or rate of inhibition of larger than 50%) | –
Cc1cccc2c1OC(C)(C)N=C2c1cnn2c(C)c(C)cnc12 | – | H (H represents a control value or rate of inhibition of larger than 50%) | – | H (H represents a control value or rate of inhibition of larger than 50%) | H (H represents a control value or rate of inhibition of larger than 50%) | – | – | –
Cc1c(Br)cnc2c1ncn2C1=NC(C)(c2ccccc2F)Oc2c(Cl)cccc21 (stereo not shown) | – | – | – | – | – | H (H represents a control value or rate of inhibition of larger than 50%) | H (H represents a control value or rate of inhibition of larger than 50%) | –
Cc1cnc2c(ncn2C2=NC(C)(c3ccccc3F)Oc3c(Cl)cccc32)c1C (stereo not shown) | – | – | – | – | – | H (H represents a control value or rate of inhibition of larger than 50%) | H (H represents a control value or rate of inhibition of larger than 50%) | –
Cc1ccc2c(c1)OC(C)(C)N=C2n1cnc2c(C3CC3)cccc21 | L (L represents a control value or rate of inhibition of 50% or less) | L (L represents a control value or rate of inhibition of 50% or less) | H (H represents a control value or rate of inhibition of larger than 50%) | H (H represents a control value or rate of inhibition of larger than 50%) | L (L represents a control value or rate of inhibition of 50% or less) | – | – | –
Cc1c(Cl)cnc2c1ncn2C1=NC(C)(c2ccccc2F)Oc2c(Cl)cccc21 (stereo not shown) | – | – | – | – | – | H (H represents a control value or rate of inhibition of larger than 50%) | H (H represents a control value or rate of inhibition of larger than 50%) | –
Cc1ccc2c(c1)OC(C)(C(C)(C)C)N=C2n1cnc2c(C)c(C)ccc21 (stereo not shown) | L (L represents a control value or rate of inhibition of 50% or less) | L (L represents a control value or rate of inhibition of 50% or less) | H (H represents a control value or rate of inhibition of larger than 50%) | H (H represents a control value or rate of inhibition of larger than 50%) | L (L represents a control value or rate of inhibition of 50% or less) | – | – | –
Cc1ccc2c(c1)OC(C)(C)N=C2n1cnc2c(C)c(Cl)ccc21 | – | – | – | – | – | – | – | Anthracnose anti-germ test (rate of inhibition) [5]: H (H represents a control value or rate of inhibition of larger than 50%)
Cc1cnc2c(ncn2C2=NC(C)(c3ccccc3)Oc3c(F)cccc32)c1C (stereo not shown) | – | – | – | – | – | H (H represents a control value or rate of inhibition of larger than 50%) | H (H represents a control value or rate of inhibition of larger than 50%) | –
CCN(C)c1ccc2c(c1)OC(C)(C)N=C2n1cnc2c(C)c(C)ccc21 | H (H represents a control value or rate of inhibition of larger than 50%) | H (H represents a control value or rate of inhibition of larger than 50%) | H (H represents a control value or rate of inhibition of larger than 50%) | H (H represents a control value or rate of inhibition of larger than 50%) | H (H represents a control value or rate of inhibition of larger than 50%) | – | – | –

Source: patent publication EP4821928A1, “BICYCLIC HETEROCYCLIC COMPOUND AND FUNGICIDE FOR AGRICULTURAL AND HORTICULTURAL USE CONTAINING SAME AS ACTIVE INGREDIENT” (dated 2026)
